Record: PubChem BioAssay AID504761 (Drosophila RNAi Screening Center, 2011)

Aim: 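Insect host genes that dengue virus relies on to spread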 (primary screen)
Cells: D.Mel-2 cells from Drosophila
Knock-down reagent: long dsRNA against Drosophila genes
Conditions: infection with dengue virus type 2; dose and infection time not stated
Measured: 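Per well on two replicate plates, imaging gave the percent of cells positive for viral envelope protein, ranked by infection, and a nuclear count of cells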
Direction: infection score: higher = more virus-infected cells; cell count: higher = more cells in the well
Active means: 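Very low infection ranking in both replicate wells (chance probability at most 0.065), then a retest showing infection dropped 1.5-fold or more at p below 0.05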
Meaning of the calls: active = confirmed: knock-down lowers infection; inactive = not picked or not confirmed
The screen tested about 22,000 reagents; this is an unselected part of those that have a named target and a result. Of all reagents, 116 (0.52%) got an active call. 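Calls depend on retest data that are not deposited; infection was ranked per plate without normalising between plates; the unit of the infection score is not given.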 The raw values are shown without normalisation. The numbers tell different reagents against one gene apart. Names joined by + are all predicted targets of the reagent. Not stated in the record: the amount of reagent, the time to read-out.

gene | reagent | infection score, replicate 1 | infection score, replicate 2 | cell count, replicate 1 | cell count, replicate 2 | call
CG13693 | 1 | 5.41 | 6.6 | 6914 | 6663 | inactive
CG13693 | 2 | 2.26 | 1.03 | 6851 | 6529 | inactive
Snx17 (Sorting nexin 17) | 1 | 15.7 | 14.8 | 7234 | 6517 | inactive
Snx17 (Sorting nexin 17) | 2 | 27.1 | 23.9 | 6181 | 5896 | inactive
CG33467 | 1 | 6.21 | 5.98 | 6119 | 5721 | inactive
CG33467 | 2 | 4.9 | 4.83 | 6667 | 2008 | inactive
CG30048 | 1 | 6.22 | 1.28 | 6001 | 6537 | inactive
Klp67A + CG34456 | 1 | 0.75 | 0.98 | 6028 | 6298 | inactive
Nph (Nucleophosmin) | 1 | 6.05 | 1.88 | 4677 | 6646 | inactive
CG15525 | 1 | 11.3 | 4.49 | 2703 | 7147 | inactive
CG15525 | 2 | 2.14 | 7.29 | 6581 | 6103 | inactive
CG14423 | 1 | 0.91 | 0.75 | 6278 | 6131 | inactive
CG14423 | 2 | 3.15 | 9.31 | 6154 | 6067 | inactive
TpnC73F (Troponin C at 73F) | 1 | 2.32 | 1.38 | 6554 | 6073 | inactive
CG13481 | 1 | 1.55 | 1.15 | 6191 | 6635 | inactive
CG13481 | 2 | 7.07 | 16.1 | 2333 | 6143 | inactive
TrpA1 (Transient receptor potential cation channel A1) | 1 | 0.9 | 2.81 | 6470 | 6223 | inactive
rictor (rapamycin-insensitive companion of Tor) | 1 | 1.04 | 5.69 | 6142 | 5130 | inactive
CG10154 | 1 | 2.92 | 1.38 | 6654 | 6867 | inactive
CG30345 | 1 | 9.8 | 3.35 | 5733 | 6111 | inactive
Rab4 + CG42239 | 1 | 2.96 | 5.84 | 6460 | 5070 | inactive
CG33310 | 1 | 5.29 | 3.66 | 6578 | 7103 | inactive
CG33310 | 2 | 5.23 | 1.1 | 6518 | 5991 | inactive
Pxn (Peroxidasin) | 1 | 3.43 | 2.25 | 6359 | 6635 | inactive
Pxn (Peroxidasin) | 2 | 19.1 | 19.5 | 6592 | 6423 | inactive
CG4390 | 1 | 4.99 | 2.3 | 6067 | 6474 | inactive
CG4390 | 2 | 0.71 | 13.2 | 6439 | 5392 | inactive

Continued, starting with the last 5 of the part before.
gene | reagent | infection score, replicate 1 | infection score, replicate 2 | cell count, replicate 1 | cell count, replicate 2 | call
CG33310 | 2 | 5.23 | 1.1 | 6518 | 5991 | inactive
Pxn (Peroxidasin) | 1 | 3.43 | 2.25 | 6359 | 6635 | inactive
Pxn (Peroxidasin) | 2 | 19.1 | 19.5 | 6592 | 6423 | inactive
CG4390 | 1 | 4.99 | 2.3 | 6067 | 6474 | inactive
CG4390 | 2 | 0.71 | 13.2 | 6439 | 5392 | inactive
Osi5 (Osiris 5) | 1 | 3.91 | 5.29 | 6657 | 6638 | inactive
CG5746 | 1 | 2.5 | 2.43 | 6077 | 5642 | inactive
CG5746 | 2 | 8.64 | 6.35 | 6329 | 5305 | inactive
Ir56a (Ionotropic receptor 56a) | 1 | 3.06 | 2.79 | 5749 | 5591 | inactive
Ir56a (Ionotropic receptor 56a) | 2 | 15.9 | 1.19 | 2815 | 505 | inactive
CG15554 | 1 | 8.12 | 2.8 | 3647 | 6867 | inactive
RNaseMRP:RNA (Ribonuclease MRP RNA) | 1 | 0.88 | 5.65 | 6441 | 6660 | inactive
CG10948 | 1 | 0.29 | 0.41 | 6104 | 6364 | active
dmGlut (Dietary and metabolic glutamate transporter) | 1 | 8.59 | 7.33 | 6296 | 6305 | inactive
dmGlut (Dietary and metabolic glutamate transporter) | 2 | 0.77 | 1.38 | 6473 | 6237 | inactive
CG17005 | 1 | 9.39 | 18.8 | 4612 | 5275 | inactive
CG14961 | 1 | 2.54 | 1.75 | 6266 | 6052 | inactive
fu (fused) | 1 | 6.75 | 2.98 | 5229 | 5504 | inactive
fu (fused) | 2 | 8.6 | 8.17 | 4955 | 6355 | inactive
Ref2 (RNA and export factor binding protein 2) | 1 | 6.06 | 2.23 | 6006 | 6001 | inactive
cora (coracle) | 1 | 2.7 | 1.27 | 6142 | 6476 | inactive
cora (coracle) | 2 | 18.2 | 9.79 | 5963 | 5943 | inactive
CG42458 | 1 | 0.88 | 3.41 | 6355 | 6683 | inactive
CG42458 | 2 | 1.79 | 8.47 | 5433 | 6128 | inactive
CG42458 | 3 | 3.78 | 1.11 | 6643 | 6404 | inactive
CG42458 | 4 | 14.7 | 10.9 | 6414 | 6423 | inactive
CG7560 | 1 | 0.86 | 4 | 6070 | 6353 | inactive
Mmp2 (Matrix metalloproteinase 2) | 1 | 4.9 | 4.9 | 6709 | 6794 | inactive
Mmp2 (Matrix metalloproteinase 2) | 2 | 10.1 | 5.23 | 6196 | 6637 | inactive
Mmp2 (Matrix metalloproteinase 2) | 3 | 5.31 | 3.45 | 6457 | 6089 | inactive
CG32511 (retired record) | 1 | 6.83 | 4.19 | 6555 | 6523 | inactive
CG34324 | 1 | 1.41 | 2.47 | 6681 | 6895 | inactive
CG12065 | 1 | 4.42 | 3.65 | 5884 | 5781 | inactive
CG12065 | 2 | 1.64 | 3.93 | 6536 | 6722 | inactive
Muc14A (Mucin 14A) | 1 | 3.02 | 11.3 | 6117 | 5823 | inactive
Rh7 (Rhodopsin 7) | 1 | 2.48 | 2.89 | 5635 | 6641 | inactive
Rh7 (Rhodopsin 7) | 2 | 14 | 6.08 | 5295 | 5380 | inactive
